Laboratory results taken from patent US20210015884A1 (priority 2018, published 2021).

How the values were obtained:
[1] = tested on: m^6A levels in MDCK cells; test: m6A levels in MDCK cells transfected with oligonucleotides; details: 100 nM oligo, 72 hrs after transfection
[2] = tested on: m^6A methylation in viral RNA; test: m6A methylation in viral RNA from MDCK cells treated with oligos; assay type: cell-based, influenza A virus; details: MDCK cells pre-treated with oligo, after selection with Zanamivir; FIG. 8

For “5′ GG/i2FA/CUGG/i2FA/CUGG/i2FA/CUGG/i2FA/CU 3′”, the “inhibition of m^6A levels” value [1] was 80% and the “m^6A methylation in corresponding viral RNA” value [2] was “concomitant decrease”.
